HIV-1 LAI Vif substitutions under APOBEC3G selection

The measurements come from Langley et al. 2025, preprint (doi:10.1101/2025.10.20.683452).

Protein: Vif of HIV-1 LAI (a laboratory-adapted subtype B strain). Residues 12-115 were scanned and are shown below; the first letter is residue 12.
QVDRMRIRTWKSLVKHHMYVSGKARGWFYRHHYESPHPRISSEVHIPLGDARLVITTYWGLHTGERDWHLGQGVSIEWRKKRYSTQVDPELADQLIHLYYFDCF

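Pooled viruses with one designed change each in Vif went through two 72 h rounds in SupT1 cells expressing APOBEC3G. Frequencies after the second round, in three biological replicates, were compared with the merged pool after the first round. Changes do not touch integrase, since the pol overlap was removed.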

The score is log2 enrichment against the wild-type codon: higher is better tolerated, lower is depleted.
Each entry names the wild-type residue, its position and the residue put in its place.
The median of three replicates is given, with the replicates in brackets.
Input reads are the counts in the merged round-one pool, before selection.
Replicates agree only moderately (rank correlation about 0.4-0.65); scores from under about 50 input reads tend to be too high.
The authors note that some positive scores may be noise, and some enriched variants failed when tested singly.
Some changes are missing from the data or left out.

substitution,input reads,log2 enrichment (median)
L64F,131,-4.08 (-4.39 -4.08 -2.06)
V65A,770,-2.97 (-1.92 -2.97 -3.47)
V65C,485,-0.57 (-0.57 1.66 -1.50)
V65D,973,0.54 (-0.73 0.54 3.81)
V65G,71,0.17 (0.17 4.88 -0.25)
V65H,1590,-1.70 (-1.70 -0.52 -2.40)
V65K,24,-2.40 (-1.98 -3.97 -2.40)
V65L,455,-3.66 (-0.71 -3.66 -3.81)
V65N,497,-3.04 (-2.87 -4.61 -3.04)
V65P,419,-2.91 (-2.91 -1.53 -4.18)
V65Q,187,-3.75 (-1.01 -4.10 -3.75)
V65R,292,-1.86 (-1.86 1.91 -3.66)
V65S,395,-3.68 (-3.68 -5.17 -0.74)
V65T,368,-3.09 (-3.09 -3.79 -2.06)
V65Y,485,-1.54 (-1.54 1.48 -3.01)
I66D,385,-3.59 (-2.04 -4.25 -3.59)
I66E,44,1.24 (0.33 4.88 1.24)
I66F,85,2.86 (-0.32 2.86 4.35)
I66G,34,0.99 (0.99 5.08 -0.11)
I66L,428,-1.86 (-1.86 1.39 -2.03)
I66N,1231,-0.64 (-0.64 -0.47 -1.73)
I66P,436,-1.88 (-1.88 -0.25 -2.49)
I66Q,447,-2.26 (-2.26 -0.73 -3.80)
I66V,528,-2.46 (-2.50 1.47 -2.46)
I66W,458,-2.50 (-2.50 -1.93 -3.19)
I66Y,125,0.19 (0.19 -1.47 5.19)
T67C,971,-2.81 (-2.43 -2.81 -2.88)
T67D,434,-0.39 (-0.34 -0.39 -1.53)
T67E,849,-2.05 (-2.05 -3.42 -1.87)
T67F,866,-3.48 (-3.03 -3.84 -3.48)
T67G,539,-1.91 (-1.91 1.82 -2.80)
T67H,743,-1.54 (-1.54 -4.04 -1.37)
T67I,503,0.15 (-0.11 1.11 0.15)
T67K,411,-2.87 (-2.87 -0.56 -4.17)
T67L,152,-0.42 (-0.22 -2.37 -0.42)
T67N,430,-0.68 (-0.68 -2.90 2.56)
T67Q,56,2.90 (2.49 2.90 5.73)
T67R,22,0.23 (0.96 0.23 0.02)
T67S,285,1.20 (1.20 2.09 -1.45)
T67V,144,4.01 (4.01 4.47 0.44)
T67W,913,-2.95 (-2.95 -4.55 -0.96)
T68A,861,-2.06 (-1.45 -2.82 -2.06)
T68C,892,-2.13 (-2.13 -3.75 -1.77)
T68D,1352,-1.06 (-3.25 -0.69 -1.06)
T68G,34,-0.16 (-0.16 5.46 -0.58)
T68H,1001,-2.21 (-0.57 -3.32 -2.21)
T68K,2512,-1.61 (-1.61 -1.51 -2.41)
T68Q,1592,-1.50 (-2.13 -1.50 0.29)
T68R,48,0.49 (0.49 4.64 0.30)
T68V,640,-1.57 (-2.61 1.31 -1.57)
T68W,29,1.20 (1.20 5.29 -1.09)
T68Y,130,1.18 (0.89 1.18 6.19)
Y69A,597,-2.96 (-2.32 -4.09 -2.96)
Y69D,159,3.74 (4.02 -1.09 3.74)
Y69E,510,-1.04 (-0.85 -1.56 -1.04)
Y69F,425,-2.38 (-2.38 -4.66 -1.91)
Y69G,878,-3.70 (-3.43 -4.21 -3.70)
Y69H,451,-3.36 (-3.36 -4.30 -2.94)
Y69K,430,-3.12 (-2.64 -3.61 -3.12)
Y69L,479,0.56 (-2.01 0.56 1.36)
Y69N,823,-1.68 (-2.64 -0.88 -1.68)
Y69R,1149,-3.90 (-2.09 -4.13 -3.90)
Y69S,404,-1.13 (-0.96 -3.19 -1.13)
Y69T,306,-3.12 (-4.02 -3.12 -1.69)
Y69V,24,-2.42 (-1.96 -2.42 -2.44)
Y69W,568,0.28 (2.73 -2.23 0.28)
W70A,479,-1.61 (-1.61 -2.42 1.00)
W70C,114,-1.86 (-1.02 -2.15 -1.86)
W70D,2457,-1.41 (-1.41 -3.39 -0.31)
W70F,469,-1.95 (2.83 -2.99 -1.95)
W70I,105,-1.38 (-0.90 -2.21 -1.38)
W70K,82,0.20 (5.62 -1.52 0.20)
W70L,34,0.71 (0.71 5.02 -0.13)
W70N,586,-1.26 (-1.26 -2.49 -1.09)
W70P,796,-2.04 (-0.45 -3.02 -2.04)
W70Q,391,-3.93 (-3.16 -3.93 -4.86)
W70T,782,-2.08 (-2.01 -2.95 -2.08)
W70Y,421,-2.64 (-2.90 -2.19 -2.64)

A selection of 6 entries from above:

substitution	input reads	log2 enrichment (median)
V65L	455	-3.66 (-0.71 -3.66 -3.81)
W70I	105	-1.38 (-0.90 -2.21 -1.38)
V65G	71	0.17 (0.17 4.88 -0.25)
I66W	458	-2.50 (-2.50 -1.93 -3.19)
T67D	434	-0.39 (-0.34 -0.39 -1.53)
W70Q	391	-3.93 (-3.16 -3.93 -4.86)